Results of unrelated studies side by side (data: NIAID ChemDB).

All rows: growth or infection tests; species: Mycobacterium fortuitum

Blank or dashed fields: not listed here. ECn: concentration that inhibits the pathogen or its effect by n%. Percent inhibition refers to the dose given; in toxicity tests it is the harm to the cells. A number after MIC or MFC names an inhibition level or a share of isolates. Neighbouring rows are from separate reports.

{"smiles": "CC1CN(c2c(F)cc3c(=O)c(C(=O)O)cn(C4CC4)c3c2Br)CC(C)N1", "strain or isolate": "ATCC 6841", "endpoint": "MIC", "result": "0.06 µg/mL"}
{"smiles": "CC(C)(C)c1ccc(C=O)cc1", "endpoint": "EC50", "result": ">1000 µM"}
{"smiles": "NC1CCN(c2nc3c(cc2F)c(=O)c(C(=O)O)cn3-c2ccc(F)cc2F)C1", "strain or isolate": "25 isolates", "endpoint": "MBC90", "result": ">8 µg/mL"}
{"smiles": "N/C(=N\\N=C1CCCCCCCCCCC1)c1ccccn1", "endpoint": "inhibition", "dose": "100 µM", "result": "2.1%"}
{"smiles": "CC1CN(c2c(F)cc3c(=O)c(C(=O)O)cn(C4CC4)c3c2C(F)(F)F)CC(C)N1", "strain or isolate": "ATCC 6841", "endpoint": "MIC", "result": "0.5 µg/mL"}
{"smiles": "CC[C@H](C)N1CCN(c2cc(=O)c3nc4c(oc3c2)c2c(=O)c3c(O)c(C)c5c(c34)=C(O)[C@@](C)(O/C=C/[C@H](OC)[C@@H](C)[C@@H](OC(C)=O)[C@H](C)[C@H](O)[C@H](C)[C@@H](O)[C@@H](C)/C=C/C=C(/C)C(=O)N2)O5)CC1", "strain or isolate": "20 strains", "endpoint": "MIC90", "result": ">100 µg/mL"}
{"smiles": "NC1CCN(c2c(F)cc3c(=O)c(C(=O)O)cn(C4CC4)c3c2F)C1", "strain or isolate": "ATCC 6841", "endpoint": "MIC", "result": "0.06 µg/mL"}
{"smiles": "CN[C@@H]1[C@H](O)[C@H](NC)[C@H]2O[C@@]3(O)C(=O)C[C@@H](C)O[C@H]3O[C@@H]2[C@H]1O", "strain or isolate": "ATCC 6841", "endpoint": "MBC", "result": ">64 µg/mL"}
{"smiles": "CCC(C)(C)c1ccc(C=O)cc1", "endpoint": "inhibition", "dose": "1000 µM", "result": "24.1%"}
{"smiles": "NCC[C@H](O)C(=O)N[C@@H]1C[C@H](N)[C@@H](O[C@H]2O[C@H](CN)[C@@H](O)[C@H](O)[C@H]2O)[C@H](O)[C@H]1O[C@H]1O[C@H](CO)[C@@H](O)[C@H](N)[C@H]1O", "strain or isolate": "10 strains", "endpoint": "MIC50", "result": "0.5 µg/mL"}
{"smiles": "CCN1CCN(c2c(F)cc3c(=O)c(C(=O)O)cn(-c4ccc(F)cc4F)c3c2F)CC1", "strain or isolate": "ATCC 6841", "endpoint": "MIC", "result": "1 µg/mL"}
{"smiles": "N/C(=N\\N=C\\c1ccccn1)c1ccccn1", "endpoint": "EC50", "result": ">1000 µM"}
{"smiles": "CO[C@H]1/C=C/O[C@@]2(C)Oc3c(C)c(O)c4c(=O)c(c5oc6cc(N7CCN(CC(C)C)CC7)cc(=O)c6nc5c4c3=C2O)NC(=O)/C(C)=C\\C=C\\[C@H](C)[C@H](O)[C@@H](C)[C@@H](O)[C@@H](C)[C@H](OC(C)=O)[C@@H]1C", "strain or isolate": "20 strains", "endpoint": "MIC50", "result": ">100 µg/mL"}
{"smiles": "C[C@H]1COc2c(N3CCN(C)CC3)c(F)cc3c(=O)c(C(=O)O)cn1c23", "strain or isolate": "48 strains", "endpoint": "MIC90", "result": "0.25 µg/mL"}
{"smiles": "Nc1ccc(C(=O)O)c(O)c1", "strain or isolate": "198 strains", "method": "agar", "endpoint": "EC50", "result": ">2 µg/mL"}
{"smiles": "CCOc1c(N2CCC(N)C2)c(F)cc2c(=O)c(C(=O)O)cn(C3CC3)c12", "strain or isolate": "ATCC 6841", "endpoint": "MIC", "result": "0.06 µg/mL"}
{"smiles": "CC[C@H]1OC(=O)[C@H](C)[C@@H](O[C@H]2C[C@@](C)(OC)[C@@H](O)[C@H](C)O2)[C@H](C)[C@@H](O[C@@H]2O[C@H](C)C[C@H](N(C)C)[C@H]2O)[C@](C)(O)C[C@@H](C)/C(=N\\OCOCCOC)[C@H](C)[C@@H](O)[C@]1(C)O", "strain or isolate": "48 strains", "endpoint": "MIC90", "result": ">64 µg/mL"}
{"smiles": "CCN1CCN(c2nc3c(cc2F)c(=O)c(C(=O)O)cn3C2CC2)CC1", "strain or isolate": "ATCC 6841", "endpoint": "MIC", "result": "0.25 µg/mL"}
{"smiles": "CCC(C)(C)c1ccc(/C=N/N=C(\\N)c2ccccn2)cc1", "endpoint": "inhibition", "dose": "1000 µM", "result": "3.1%"}
{"smiles": "CC1CN(c2c(F)cc3c(=O)c(C(=O)O)cn(C4CC4)c3c2C(F)(F)F)CCN1", "strain or isolate": "ATCC 6841", "endpoint": "MIC", "result": "1 µg/mL"}
{"smiles": "CN[C@@H]1[C@@H](O)[C@@H](O[C@@H]2[C@@H](O)[C@H](O[C@H]3O[C@H](CN)CC[C@H]3N)[C@@H](N)C[C@H]2N)OC[C@]1(C)O", "strain or isolate": "ATCC 6841", "endpoint": "MBC", "result": "32 µg/mL"}

2 of the rows above, restated:

smiles,strain or isolate,method,endpoint,dose,result
NC1CCN(c2c(F)cc3c(=O)c(C(=O)O)cn(C4CC4)c3c2F)C1,ATCC 6841,,MIC,,0.06 µg/mL
CC(C)(C)c1ccc(C=O)cc1,,,EC50,,>1000 µM